# Laboratory results from US10174401B2, “Methods for binding and precipitating gold using microbial-derived metallophores and their uses” (McMaster University, priority 2013, dated 2019).
# Like-named read-outs stand apart in the source and are kept apart here. *1 amine or outer side, *2 acyl side, *3 side chain or, on linkers, in order; H or OH if unused. Where a SMILES comes first, the peptide text is derived from it. [ ]: non-standard residue; d: D form. The star is where a group is joined. ξ: configuration not given here. NH(1-OH-2-oxopiperidin-3-yl) = O=C1C(N*)CCCN1O; ξOrn(N(OH)CHO) = NC(CCCN(O)C=O)C(=O)O; ξAsp(βξ-Me) = CC(C(=O)O)C(N)C(=O)O; X2 = C/C=C(/N[*:1])C(=O)[*:2]; X1 = CC(N)C(O)C(C)C(=O)*
# Test system: D. acidovorans
# Set-up: species or system Delftia acidovorans
compound,measurement,setting,value
C/C=C(/NC(=O)CNC(=O)C(C)NC(=O)C(NC(=O)C(C)C(O)C(C)N)C(C)C(=O)O)C(=O)NC(CCCN(O)C=O)C(=O)NC(C)C(=O)NC(CCCNC(=N)N)C(=O)NC1CCCN(O)C1=O (stereo not drawn) [delftibactin A] (X1-[ξAsp(βξ-Me)]AG[X2][ξOrn(N(OH)CHO)]AR-{NH(1-OH-2-oxopiperidin-3-yl)}; configuration not given here),concentration in supernatants,D. acidovorans culture,> 200 µM
same,[Delftibactin],"Media [Iron] 0, 48 h",205.8 ± 28.0 µM
same,[Delftibactin],"Media [Iron] 100 nM, 48 h",196.1 ± 30.7 µM
same,[Delftibactin],"Media [Iron] 1 μM, 48 h",149.3 ± 21.0 µM
same,[Delftibactin],"Media [Iron] 10 μM, 48 h",21 ± 9.4 µM
same,[Delftibactin],"Media [Iron] 100 μM, 48 h",2.2 ± 1.4 µM
